Results of unrelated studies side by side (data: NIAID ChemDB).

Shared fields: growth or infection tests; agent: HIV-1; method: cytopathic effect / MTT; measure: EC50

Lines come from different laboratories, so protocols vary.

| smiles | changes | strain | cell line | result |
|---|---|---|---|---|
| Cc1cccc(Nn2c(-c3ccccc3)c(C(C)C)[nH]c2=S)c1 |  | NL4-3 | MT-4 | ≥42.63 µM |
| Cc1c(Sc2ccccc2)n(COCc2ccccc2)c(=O)[nH]c1=O |  | IIIB | MT-4 | 0.093 µM |
| CC(C)c1nc(CN(C)C(=O)N[C@@H](C(=O)NN(Cc2ccccc2)C[C@H](O)[C@H](Cc2ccccc2)NC(=O)OCc2cncs2)C(C)C)co1 |  | IIIB | MT-4 | 0.11 µM |
| CC(C)CN(C[C@@H](O)[C@H](Cc1ccccc1)NC(=O)[C@@H](NC(=O)CNCc1cccc(F)c1)C(C)(C)C)S(=O)(=O)c1ccc2nc(NCCN3CCCC3)sc2c1 |  | IIIB | MT-4 | 0.0575 µM |
| Cc1ccc(NC(=S)NNC(=O)Cc2ccccn2)cc1Cl |  | IIIB | MT-4 | >100 µM |
| CC(C)c1nc(CN(C)C(=O)N[C@@H](C(=O)NN(Cc2cccc(O)c2)C[C@H](O)[C@H](Cc2ccccc2)NC(=O)OCc2cncs2)C(C)C)cs1 |  | IIIB | MT-4 | 1.37 µM |
| Cc1cc(C)cc(S(=O)(=O)c2c(C(=O)NCC(=O)NN)[nH]c3ccc(Cl)cc23)c1 | RT-K103R |  | C8166 | <0.1 µM |
| Nc1ncn([C@H]2CO[C@@H](CO)O2)c(=O)n1 |  | IIIB | MT-2 | 1 µM |
| Cc1cccc(S(=O)(=O)c2c(C(=O)NCCO)[nH]c3ccc(Cl)cc23)c1 | RT-K103N Y181C |  | MT-4 | 1.1 µM |
| NCCCCCCNC(=O)Cc1cn([C@H]2C=C[C@@H](CO)O2)c(=O)[nH]c1=O |  | LAI | CEM + CEM-SS | >100 µM |
| OCCOCc1ccc(F)cc1F |  |  | CEM | >500 µg/mL |
| CC(C)CN(C[C@@H](O)[C@H](Cc1ccccc1)NC(=O)OCc1cncs1)S(=O)(=O)c1ccc2nc(NC(=O)CN3CCN(C)CC3)sc2c1 |  | IIIB | MT-4 | 0.0079 µM |
| Cc1cccc(C)c1OCC(=O)N[C@@H](Cc1ccccc1)[C@H](O)CN(CC(C)C)S(=O)(=O)c1ccc(-c2ccnn2Cc2ccccc2)cc1 |  | LAI | MT-4 | 6.31 µM |
| Cc1cc(C)cc(Sc2c(C(=O)NCCO)[nH]c3ccc(Cl)cc23)c1 | RT-Y181C |  | MT-4 | 0.009 µM |
| Cc1cccc(C)c1OCC(=O)N[C@@H](Cc1ccccc1)[C@H](O)CN(CC(C)C)S(=O)(=O)c1ccc2nc(NC(=O)c3ccccn3)sc2c1 |  | IIIB | MT-4 | 0.01 µM |
| CC(C)CN(C[C@@H](O)[C@H](Cc1ccccc1)NC(=O)OCc1cncs1)S(=O)(=O)c1ccc(-c2csc(Nc3ccncc3)n2)cc1 |  | LAI | MT-4 | 3.162 µM |
| Cc1ccc(Nc2nnc(Cc3ccccn3)s2)cc1Cl |  | IIIB | MT-4 | >47 µM |
| Cc1ncn(Nc2ccccc2)c1C |  | NL4-3 | MT-4 | >351 µM |
| CC(C)(C)NC(=O)[C@@H]1CN(Cc2cncs2)CCN1C[C@@H](O)C[C@@H](Cc1ccccc1)C(=O)N[C@H]1c2ccccc2C[C@H]1O |  | IIIB | MT-4 | 0.016 µM |
| Cc1ccc(S(=O)(=O)c2c(C(=O)NCCO)[nH]c3ccc(Cl)cc23)c(C)c1 |  | IIIB | C8166 | 0.02 µM |
| CC(C)CN(C[C@@H](O)[C@H](Cc1ccccc1)NC(=O)OCc1cncs1)S(=O)(=O)c1ccc2nc(N(C)C(=O)CN(C)C)sc2c1 |  | R13025 | MT-4 | 0.0631 µM |
| COC(=O)[C@H](CCCN=C(N)N)NC(=O)CCCCCNC(=O)CN(CCNC(=O)CN(CCNC(=O)OCc1ccccc1)C(=O)Cn1cnc2c(N)ncnc21)C(=O)Cn1cnc2c(=O)[nH]c(N)nc21 |  |  | PBMC/IIIB + PBMC | 1 µM |
| CSc1nc2ccccc2c(=O)n1/N=C1\C(=O)N(CN2CCCCC2)c2ccc(Br)cc21 |  | IIIB | MT-4 | >10 µM |
| CC(C)CN(C[C@@H](O)[C@H](Cc1ccccc1)NC(=O)O[C@H]1CO[C@H]2OCC[C@H]21)S(=O)(=O)c1ccc(-c2csc(Nc3ccncc3)n2)cc1 |  | LAI | MT-4 | 0.025 µM |
| CC(C)CN(C[C@@H](O)[C@H](Cc1ccccc1)NC(=O)OCc1cncs1)S(=O)(=O)c1ccc2nc(N(C)C(=O)CN3CCN(C)CC3)sc2c1 |  | R13025 | MT-4 | 0.0302 µM |
| Cc1nn([C@H]2CO[C@H](CO)O2)c(=O)[nH]c1=O |  | IIIB | MT-2 | >100 µM |
| CSc1nc2ccccc2c(=O)n1/N=C1\C(=O)N(CN2CCOCC2)c2ccccc21 |  | IIIB | MT-4 | >17 µM |
| CCc1c(Sc2ccccc2)n(COCc2ccccc2)c(=O)[nH]c1=O |  | IIIB | MT-4 | 0.0049 µM |
| Cc1cccc(Sc2c(C(=O)NCCO)[nH]c3ccc(Cl)cc23)c1 |  | IIIB | MT-4 | 0.08 µM |
| Cc1ccc(Nn2c(-c3ccccc3)c(C)[nH]c2=S)cc1Cl | RT-K103N Y181C | SO561945 (RT K103N Y181C) | MT-4 | >44.29 µM |
| Cc1cc(COCCO)c(F)cc1F |  |  | CEM | >500 µg/mL |
| Cc1cc(C)cc(S(=O)(=O)c2c(C(=O)/C=C/C(N)=O)[nH]c3ccc(Cl)cc23)c1 |  | IIIB | MT-4 | 0.06 µM |
| COC(=O)[C@H](CCCN=C(N)N)NC(=O)CCNC(=O)CN(CCNC(=O)CN(CCNC(=O)OCc1ccccc1)C(=O)Cn1cnc2c(N)ncnc21)C(=O)Cn1cnc2c(=O)[nH]c(N)nc21 |  |  | PBMC/IIIB + PBMC | 140 µM |
| OCCOCc1cc(I)c(F)cc1F |  |  | CEM | >500 µg/mL |
| CCCOCn1c(Sc2ccccc2)c(C)c(=O)[nH]c1=O |  | IIIB | MT-4 | 3 µM |
| CC(C)CN(C[C@@H](O)[C@H](Cc1ccccc1)NC(=O)O[C@H]1CCOC1)S(=O)(=O)c1ccc2nc(NCCN(C)C)sc2c1 |  | R13025 | MT-4 | 0.302 µM |
| Cc1cc(C)cc(S(=O)(=O)c2c(C(N)=O)[nH]c3c(Cl)cc(Cl)cc23)c1 | RT-K103N Y181C |  | MT-4 | >100 µM |
| NC(=O)c1[nH]c2ccc(Cl)cc2c1S(=O)(=O)c1ccccc1 |  | IIIB | C8166 | 0.003 µM |
| NCCCCCCNC(=O)Cc1cn([C@@H]2C=C[C@H](CO)O2)c(=O)[nH]c1=O |  | IIIB | CEM + CEM-SS | >10 µM |
| Brc1cccc(Nc2nnc(Cc3ccccn3)s2)c1 |  | IIIB | MT-4 | >74 µM |
| CSc1nc2ccccc2c(=O)n1/N=C1\C(=O)N(CN2CCCCC2)c2ccc(Cl)cc21 |  | IIIB | MT-4 | >10 µM |
| Nc1nc2c(ncn2CCC(CO)CO)c(=O)[nH]1 |  | IIIB | MT-4 | >493 µM |
| CC(=O)N(CCN1CCCC1)c1nc2ccc(S(=O)(=O)N(CC(C)C)C[C@@H](O)[C@H](Cc3ccccc3)NC(=O)O[C@H]3CO[C@H]4OCC[C@H]43)cc2s1 |  | R13080 | MT-4 | 0.0269 µM |
| NCCCCCCCCNC(=O)Cc1cn([C@H]2C=C[C@@H](CO)O2)c(=O)[nH]c1=O |  | IIIB | CEM + CEM-SS | >100 µM |
| Nc1ncn([C@@H]2CO[C@H](CO)O2)c(=O)n1 |  | IIIB | MT-2 | 5 µM |
| O=[N+]([O-])c1cc(COC(CO)CO)c(F)cc1F |  |  | CEM | >500 µg/mL |
| COC(=O)[C@H](CCCN=C(N)N)NC(=O)CCCCCNC(=O)CN(CCNC(=O)CN(CCNC(=O)OCc1ccccc1)C(=O)Cn1cnc2c(=O)[nH]c(N)nc21)C(=O)Cn1cnc2c(N)ncnc21 |  |  | PBMC/IIIB + PBMC | 20 µM |
| Cc1ccc(S(=O)(=O)c2c(C(=O)NNCCO)[nH]c3ccc(Cl)cc23)cc1 | RT-Y181C |  | MT-4 | 0.03 µM |
| CCOC(=O)CCc1nc(-c2ccc(S(=O)(=O)N(CC(C)C)C[C@@H](O)[C@H](Cc3ccccc3)NC(=O)O[C@H]3CO[C@H]4OCC[C@H]43)cc2)co1 |  | LAI | MT-4 | 0.02 µM |
| FC(F)(F)c1cccc(Nc2nnc(Cc3ccccn3)s2)c1 |  | IIIB | MT-4 | >70.6 µM |
| CC(C)CN(C[C@@H](O)[C@H](Cc1ccccc1)NC(=O)O[C@H]1CCOC1)S(=O)(=O)c1ccc2nc(N(C)CCN(C)C)sc2c1 |  | LAI | MT-4 | <0.05 µM |
| Nc1ncn([C@@H]2CO[C@@H](CO)O2)c(=O)n1 |  | IIIB | MT-2 | >100 µM |
| CCc1[nH]c(=S)n(Nc2cccc(Cl)c2)c1-c1ccccc1 |  | IIIB | MT-4 | 9.06 µM |
| Cc1cc(C)cc(Sc2c(C(=O)NNCCO)[nH]c3ccc(Cl)cc23)c1 |  | IIIB | C8166 | 0.1 µM |
| NC(N)=NCCC[C@H](NC(=O)CCCCCNC(=O)CN(CCNC(=O)CN(CCNC(=O)OCc1ccccc1)C(=O)Cn1cnc2c(N)ncnc21)C(=O)Cn1cnc2c(=O)[nH]c(N)nc21)C(=O)O |  |  | PBMC/IIIB + PBMC | >200 µM |
| Cc1ccccc1S(=O)(=O)c1c(C(=O)NCCO)[nH]c2ccc(Cl)cc12 |  | IIIB | MT-4 | 0.031 µM |
| CSc1nc2ccccc2c(=O)n1/N=C1\C(=O)N(CN(C)C)c2ccc(Br)cc21 |  | IIIB | MT-4 | >16 µM |
| O=C(NCCO)c1[nH]c2ccc(Cl)cc2c1S(=O)(=O)c1ccccc1 |  | IIIB | MT-4 | 0.001 µM |
| Nc1nc2c(ncn2[C@@H]2C[C@@H](F)[C@H](CO)O2)c(=O)[nH]1 |  |  | CEM + CEM-SS | >100 µM |
| Cc1[nH]c(=S)n(Nc2cccc(Cl)c2)c1C(=O)O |  | IIIB | MT-4 | >266 µM |
| CC(C)CN(C[C@@H](O)[C@H](Cc1ccccc1)NC(=O)O[C@H]1CO[C@H]2OCC[C@H]21)S(=O)(=O)c1ccc(-c2coc(-c3ccc4c(c3)OCO4)n2)cc1 |  | LAI | MT-4 | 0.016 µM |

Repeating the first 4 entries:

| smiles | changes | strain | cell line | result |
|---|---|---|---|---|
| Cc1cccc(Nn2c(-c3ccccc3)c(C(C)C)[nH]c2=S)c1 |  | NL4-3 | MT-4 | ≥42.63 µM |
| Cc1c(Sc2ccccc2)n(COCc2ccccc2)c(=O)[nH]c1=O |  | IIIB | MT-4 | 0.093 µM |
| CC(C)c1nc(CN(C)C(=O)N[C@@H](C(=O)NN(Cc2ccccc2)C[C@H](O)[C@H](Cc2ccccc2)NC(=O)OCc2cncs2)C(C)C)co1 |  | IIIB | MT-4 | 0.11 µM |
| CC(C)CN(C[C@@H](O)[C@H](Cc1ccccc1)NC(=O)[C@@H](NC(=O)CNCc1cccc(F)c1)C(C)(C)C)S(=O)(=O)c1ccc2nc(NCCN3CCCC3)sc2c1 |  | IIIB | MT-4 | 0.0575 µM |

Blank or dashed fields: not listed here. ECn is the concentration giving n% inhibition of infection, replication or growth.